In paper PMC11796124, “Inhibition of STING-mediated type I IFN signaling by African swine fever virus DP71L” (2025):

Molecular target: DP71L-Flag (Flag-tagged ASFV DP71L), expressed in HEK293T cells
Assay: Strep pull-down, immunoblot band densitometry
Details: HEK293T cells co-transfected with DP71L-Flag and Strep-tagged STING; parent: est. 0.52; read off a plot

## STING-Strep (Strep-tagged STING) (from UniProt Q86WV6) S366A
  response (Relative IntDEN to β-actin): 0.47

## STING-Strep (Strep-tagged STING) (from UniProt Q86WV6) P371Q
  response (Relative IntDEN to β-actin): 0.18
